A mixed list of measured activities; the numbers were collected in NIAID ChemDB.

Shared fields: whole-cell or culture tests; agent: Mycobacterium tuberculosis

ECn: concentration that inhibits the pathogen or its effect by n%. A number after MIC or MFC names an inhibition level or a share of isolates. Percent inhibition refers to the dose given; in toxicity tests it is the harm to the cells. Two numbers with a dash give a range or band. Lines come from different laboratories, so protocols vary. Blank or dashed fields: not listed here. MIC bound: limit read from a one-dose screen.

smiles | cell line | tested at | endpoint | conditions | strain | method | value
C[C@@H]1[C@H](C)[C@@H](c2ccc(O)cc2)O[C@H]1c1ccc(O)cc1 | - | - | MIC | multidrug-resistant | Clinical isolates | resazurin | 25 µg/mL
CC1CCc2nc(N)nc(CC3CC(=O)NC(=O)C3)c2C1 | - | - | MIC bound | - | H37Rv | BACTEC | >12.5 µg/mL
CCCCCCc1ccc2c(c1)C(=O)c1nc3ccncc3c(=O)n1-2 | - | - | MIC | - | H37Rv | - | 0.015 µg/mL
Cc1c(N2CCC(N3CCCCC3)CC2)c([N+](=O)[O-])cc2c(=O)c(C(=O)O)cn(C(C)(C)C)c12 | - | - | MIC | - | H37Rv | - | 26.56 µM
Cc1ccc(NCCN2CCCCC2)c2c(=O)c3ccc(Cl)cc3sc12 | - | - | MIC | - | H37Rv | BACTEC | ≥12.5 µg/mL
CN[C@@H]1[C@H](O[C@H]2[C@H](O[C@H]3[C@H](O)[C@@H](O)[C@H](N=C(N)N)[C@@H](O)[C@@H]3N=C(N)N)O[C@@H](C)[C@]2(O)C=O)O[C@@H](CO)[C@H](O)[C@H]1O | - | - | MIC | - | BCG | - | 0.25 µg/mL
CO[C@H]1/C=C/O[C@@]2(C)Oc3c(C)c(O)c4c(O)c(c5c(c4c3C2=O)NC2(C[C@@H](c3ccc(F)cc3)N[C@@H](c3ccc(F)cc3)C2)N=5)=NC(=O)/C(C)=C\C=C\[C@H](C)[C@H](O)[C@@H](C)[C@H](O)[C@H](C)[C@H](OC(C)=O)[C@@H]1C | - | - | MIC | - | ATCC 35837 (ethambutol-resistant) | - | 0.02 µg/mL
CC(C)(C)OC(=O)c1ccc(Cn2cc(NC(=O)c3noc4c3CC(C(C)(C)C)CC4)cn2)cc1 | - | - | MIC | - | Rv3602c | - | >128 µM
CC1CCCN(C(=S)SCN2C(=O)c3ccccc3S2(=O)=O)C1 | - | 6.25 µg/mL | inhibition | - | H37Rv | - | 98%
CC[C@H]1OC(=O)[C@H](C)[C@@H](O[C@H]2C[C@@](C)(OC)[C@@H](O)[C@H](C)O2)[C@H](C)[C@@H](O[C@@H]2O[C@H](C)C[C@H](N(C)C)[C@H]2O)[C@](C)(OC)C[C@@H](C)C(=O)[C@H](C)[C@@H](O)[C@]1(C)O | - | - | MIC | - | BCG | - | 0.25 µg/mL
CN1C(=O)C(=O)N2c3ccc(Cl)cc3C3(c4ccccc4)N=CC12O3 | - | - | MIC bound | - | H37Rv | - | >6.25 µg/mL
Cc1c(C(=O)c2ccccc2)[n+](=O)c2cc(Cl)c(Cl)cc2n1[O-] | VERO | - | EC50 | - | H37Rv | BACTEC | <6.25 µg/mL
O=C1CSC(c2ccccc2[N+](=O)[O-])N1c1nncs1 | - | - | MIC bound | - | H37Rv | BACTEC | >12.5 µg/mL
O=C1c2ccccc2S(=O)(=O)N1CSC(=S)N1CCCCC1 | - | - | MIC | - | H37Rv | - | 1.56 µg/mL
Cc1c(C(=O)c2ccccc2)[n+](=O)c2ccccc2n1[O-] | VERO | - | EC50 | - | H37Rv | BACTEC | <6.25 µg/mL
COC(=O)c1ccc(Cn2cc(NC(=O)c3noc4c3CC(C(C)(C)C)CC4)cn2)cc1 | - | - | MIC | - | Rv3602c | - | >128 µM
O=C(NCCN1CCN2Cc3[nH]c4ccccc4c3CC2C1)c1ccc(Cl)cc1 | - | 6.25 µg/mL | inhibition | - | H37Rv | resazurin | 61%
CC(C)(C)C1CCc2onc(C(=O)Nc3cnn(Cc4ccc(C(=O)O)cc4)c3)c2C1 | - | - | MIC | - | Rv3602c | resazurin | >128 µM
CC1=CC(=NC(=O)CBr)C=C/C1=N\S(=O)(=O)c1ccccc1 | VERO | - | MIC | - | H37Rv | - | 12.5 µg/mL
NCC[C@H](O)C(=O)N[C@@H]1C[C@H](N)[C@@H](O[C@H]2O[C@H](CN)[C@@H](O)[C@H](O)[C@H]2O)[C@H](O)[C@H]1O[C@H]1O[C@H](CO)[C@@H](O)[C@H](N)[C@H]1O | - | - | MBC | - | - | - | 1 µg/mL
CCOc1ccc2cc(-n3nncc3COc3nc(-c4cccnc4)sc3C(=O)OC)c(=O)oc2c1 | - | - | MIC | - | H37Rv | resazurin | 12.36 µM
Cc1ccc(C2SC=C3SC(N4C(=O)C(Cl)C4c4ccccc4C)=NN32)cc1 | - | - | MIC | - | H37Rv | resazurin | 1.6 µg/mL
COc1cc(O)c2c(=O)cc(-c3ccc(O)cc3)oc2c1 | - | - | MIC | - | H37Rv | resazurin | >50 µg/mL
O=C1c2ccccc2-n2c1nc1c(F)cccc1c2=O | - | - | MIC | - | H37Rv | - | 0.13 µg/mL
O=C(O)c1cn(C2CC2)c2c(Cl)c(N3C[C@@H]4CCCN[C@@H]4C3)c(F)cc2c1=O | - | - | MIC50 | - | Resistant | - | 0.06 µg/mL
O=C1c2cc(C(F)(F)F)ccc2-n2c1nc1ccncc1c2=O | - | - | MIC | - | H37Rv | - | 0.015 µg/mL
NCCC[C@H](N)CC(=O)N[C@H]1CNC(=O)[C@H]([C@H]2C[C@H](O)NC(N)=N2)NC(=O)/C(=C/NC(N)=O)NC(=O)[C@H](CO)NC(=O)[C@H](CO)NC1=O | - | - | MIC | - | BCG | - | 2 µg/mL
CC(=O)c1c(C)n([O-])c2ccc(C)cc2[n+]1=O | VERO | - | MIC | - | H37Rv | BACTEC | 3.13 µg/mL
Cc1c(N2CCC3(CC2)OCCO3)c([N+](=O)[O-])cc2c(=O)c(C(=O)O)cn(C3CC3)c12 | - | - | MIC | - | H37Rv | - | 1.82 µM
Cc1nn(C(=O)c2ccncc2)c(C)c1N=Nc1ccc(-c2ccc(N)cc2)cc1 | - | 12.5 µg/mL | inhibition | - | H37Rv | BACTEC | -21%
Nc1ccc(C(=O)O)c(O)c1 | - | - | MIC | - | BCG | - | 8 µg/mL
O=C1C(Cl)C(c2ccccc2)N1C1=NN2C(=CSC2c2ccccc2)S1 | - | - | MIC | - | H37Rv | resazurin | 6.25 µg/mL
O=C1c2ccccc2S(=O)(=O)N1CSC(=S)N1CCC(Cc2ccccc2)CC1 | - | 6.25 µg/mL | inhibition | - | H37Rv | - | 5%
CC(C)(C)C1CCc2onc(C(=O)Nc3cnn(Cc4ccccc4Br)c3)c2C1 | - | - | MIC | - | Rv3602c | - | >128 µM
Cc1ccc(Nc2cccc3c2C(=O)c2cccc(Nc4ccc(C)c(S(=O)(=O)O)c4)c2C3=O)cc1S(=O)(=O)O | - | 6.25 µg/mL | inhibition | - | H37Rv | BACTEC | 0%
CC[C@H]1OC(=O)[C@H](C)[C@@H](O[C@H]2C[C@@](C)(OC)[C@@H](O)[C@H](C)O2)[C@H](C)[C@@H](O[C@@H]2O[C@H](C)C[C@H](N(C)C)[C@H]2O)[C@](C)(OC)C[C@@H](C)C(=O)[C@H](C)[C@@H](O)[C@]1(C)O | - | - | MIC | - | H37Ra | - | 0.06–0.5 µg/mL
Cc1ncc([N+](=O)[O-])n1CCN=[N+]=[N-] | - | 6.25 µg/mL | inhibition | - | H37Rv | resazurin | 5%
Cc1cccc(C(N)=Nc2nc(-c3ccccn3)cc3ccccc23)c1 | - | - | MIC | - | J-2749 | - | 0.5 µg/mL
COC(=O)c1sc(-c2ccncc2)nc1OCc1cnnn1-c1cc2ccc(N)cc2oc1=O | - | - | MIC | - | H37Rv | resazurin | 26.23 µM
CCOC(=S)SCN1C(=O)c2ccccc2S1(=O)=O | - | 6.25 µg/mL | inhibition | - | H37Rv | - | 96%
Clc1ccc(/C=N\C2=NN3C(=CSC3c3ccccc3)S2)cc1 | - | - | MIC | - | H37Rv | resazurin | 6.25 µg/mL
Cc1c(N2CCC(N3CCCCC3)CC2)c([N+](=O)[O-])cc2c(=O)c(C(=O)O)cn(-c3ccc(F)cc3F)c12 | - | - | MIC | - | H37Rv | - | >23.74 µM
OC1(c2ccc(-c3ccccc3)cc2)c2ccccc2-c2ccccc2C1(O)c1ccc(-c2ccccc2)cc1 | - | - | MIC bound | - | H37Rv | resazurin | >6.25 µg/mL
O=Cc1ccc2c(c1)C(=O)c1nc3ccncc3c(=O)n1-2 | - | - | MIC | - | H37Rv | - | 0.5 µg/mL
CC(=O)c1c(CN2CCN(c3ccc(Cl)cc3)CC2)n([O-])c2ccccc2[n+]1=O | - | 6.25 µg/mL | inhibition | - | H37Rv | BACTEC | 0%
Oc1ccc(C2SC=C3SC(/N=C\c4ccccc4O)=NN32)cc1 | - | - | MIC | - | H37Rv | resazurin | 3.125 µg/mL
CC(C)c1ccc2c(c1)CCC1C2(C)CCCC1(C)C(O)c1ccccc1 | - | 12.5 µg/mL | inhibition | - | H37Rv | BACTEC | 97%
O=C(O)c1sc(-c2cccnc2)nc1OCc1cnnn1-c1cc2ccc(O)cc2oc1=O | - | - | MIC | - | H37Rv | resazurin | 53.95 µM
COc1cc(-c2oc3c(OC)c(OC)cc(O)c3c(=O)c2OC)ccc1O | - | - | MIC | multidrug-resistant | Clinical isolates | resazurin | 25 µg/mL
COC(=O)c1sc(-c2ccccn2)nc1OCc1cnnn1-c1cc2ccc(N)cc2oc1=O | - | - | MIC | - | H37Rv | resazurin | 6.5 µM
Cc1cc(C)nc(/C(=N/NC(N)=O)C(=O)Nc2nc3ccc(C)cc3s2)c1 | - | - | MIC bound | - | H37Rv | BACTEC | >12.5 µg/mL
CC(C)(C)C1CCc2onc(C(=O)Nc3cnn(Cc4ccc(C(=O)NCc5ccccc5)cc4)c3)c2C1 | - | - | MIC | - | Rv3602c | resazurin | >128 µM
CCCCN1[C@@H](c2ccccc2)CC2(C[C@H]1c1ccccc1)N=c1c(c3c4c5c(C)c(O)c3c(O)c1=NC(=O)/C(C)=C\C=C\[C@H](C)[C@H](O)[C@@H](C)[C@H](O)[C@H](C)[C@H](OC(C)=O)[C@H](C)[C@@H](OC)/C=C/O[C@@](C)(O5)C4=O)N2 | - | - | MIC | - | ATCC 35837 (ethambutol-resistant) | - | 0.02 µg/mL
CC1COc2c(N3CCN(C)CC3)c(F)cc3c(=O)c(C(=O)O)cn1c23 | - | - | MIC90 | - | 55 isolates (RMP INH-R) | - | 2 µg/mL
O=NNc1ccc(F)cn1 | - | - | MIC bound | - | H37Rv | BACTEC | >12.5 µg/mL
O=C1C(Cl)C(c2ccccc2O)N1C1=NN2C(=CSC2c2ccc(O)cc2)S1 | - | - | MIC | - | H37Rv | resazurin | 3.125 µg/mL
C=CCN1[C@@H](c2ccccc2)CC2(C[C@H]1c1ccccc1)N=c1c(c3c4c5c(C)c(O)c3c(O)c1=NC(=O)/C(C)=C\C=C\[C@H](C)[C@H](O)[C@@H](C)[C@H](O)[C@H](C)[C@H](OC(C)=O)[C@H](C)[C@@H](OC)/C=C/O[C@@](C)(O5)C4=O)N2 | - | - | MIC | - | ATCC 35837 (ethambutol-resistant) | - | 0.02 µg/mL
CC1COc2c(N3CCN(C)CC3)c(F)cc3c(=O)c(C(=O)O)cn1c23 | - | - | MIC | - | 5 strains (ofloxacin-susceptible) | - | 0.63–1.25 µg/mL
C/C(CO)=N\Nc1nc2ccccc2s1 | - | - | MIC | - | ATCC 27294 | resazurin | 1.6 µg/mL
COc1cc2c(cc1OC)[C@@]13CCN4CC5CCO[C@H]6CC(=O)N2[C@H]1[C@H]6[C@H]5C[C@H]43 | - | 12.5 µg/mL | inhibition | - | H37Rv | BACTEC | -15%
CCn1cc(C(=O)O)c(=O)c2cc(F)c(N3CCNC(C)C3)c(F)c21 | - | - | MIC | - | H37Rv | - | 2 µg/mL
N#Cc1c(-c2ccc(Cl)cc2)[nH]c(=O)n(C2OC(CO)C(O)C(O)C2O)c1=O | - | - | MIC bound | - | H37Rv | BACTEC | >12.5 µg/mL
O=C1C(Cl)C(c2ccccc2)N1C1=NN2C(=CSC2c2ccc(O)cc2)S1 | - | - | MIC | - | H37Rv | resazurin | 6.25 µg/mL
O=C(Cn1nnc(N2CCOCC2)n1)N/N=C/c1ccccc1Cl | - | - | MIC bound | - | H37Rv | BACTEC | >12.5 µg/mL
CC(=O)c1c(COc2ccc([N+](=O)[O-])cc2)n([O-])c2ccccc2[n+]1=O | VERO | - | EC50 | - | H37Rv | BACTEC | <6.25 µg/mL
O=C1c2c(O)ccc(O)c2C(=O)c2c(NCCNCO)ccc(NCCNCO)c21 | - | - | MIC | - | - | - | 400 µM
CC(C)(C)c1cc(C(O)(C(F)(F)F)C(F)(F)F)c2c(c1)C(C(F)(F)F)(C(F)(F)F)OS2(=O)=O | - | 12.5 µg/mL | inhibition | - | H37Rv | BACTEC | 0%
CCOc1ccc2cc(-n3nncc3COc3nc(-c4cccnc4)sc3C(=O)O)c(=O)oc2c1 | - | - | MIC | - | H37Rv | resazurin | 25.43 µM
Cc1cc(Cl)ccc1N1C(=O)C(=O)C(c2nc3ccccc3s2)/C(=N/NC(=O)c2ccccc2O)C1=O | - | - | MIC | - | H37Rv | BACTEC | ≥12.5 µg/mL
CC(=O)c1c(C)n([O-])c2ccccc2[n+]1=O | VERO | - | MIC | - | H37Rv | BACTEC | 3.13 µg/mL
CC(C)(C)C1CCc2onc(C(=O)Nc3cn[nH]c3)c2C1 | - | - | MIC | - | Rv3602c | resazurin | >128 µM
O=C(c1ccccc1)N1C(=O)N(c2ccccc2)C(=Nc2ccccc2)C1=Nc1ccccc1 | - | 12.5 µg/mL | inhibition | - | H37Rv | BACTEC | 57%
Nc1ccc2cc(-n3nncc3COc3nc(-c4ccccc4)sc3C=O)c(=O)oc2c1 | - | - | MIC | - | H37Rv | resazurin | 14.03 µM
Cc1c(N2CCc3ccccc3C2C(=O)NC(C)(C)C)c([N+](=O)[O-])cc2c(=O)c(C(=O)O)cn(C(C)(C)C)c12 | - | - | MIC | - | H37Rv | - | 23.38 µM
N#CC1C=Cc2c(ccc3cccnc23)N1C(=O)c1ccccc1 | - | - | MIC | - | H37Rv | BACTEC | ≥12.5 µg/mL
CC(C)(C)C1CCc2onc(C(=O)Nc3cnn(Cc4ccc(F)cc4F)c3)c2C1 | - | - | MIC | - | Rv3602c | resazurin | >128 µM